{"source": "PubChem BioAssay AID624099 (ICCB-Longwood, 2012)", "screen": "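Knock-downs relieving repression by E2 of an HPV18 LCR luciferase reporter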 (primary screen)", "cells": "human C33A cervical carcinoma cells (HPV-negative) stably expressing BPV1 E2 and an HPV18 LCR luciferase reporter", "reagent": "siRNA pool against human genes, 40 nM", "time to read-out": "72 h", "measurement": "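Per-well luciferase luminescence, z-scored on each plate against the plate mean and SD with control wells left out, then averaged across three replicate plates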", "reading the numbers": "mean z-score and z-score: higher = stronger reporter signal, weaker E2 silencing", "active means": "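Hit if mean z-score reaches 2 and two or more of three replicate z-scores also reach 2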", "note": "Shown is a random part of about 21,000 deposited reagents. 497 of all reagents (2.4%) were called active. 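Higher z means weaker E2 silencing; only reporter increases were scored, and knock-downs that hurt cell survival may mask genuine repressor factors.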"}
The opening 2 records, ahead of the listing:
{"gene":"MLANA","mean z-score":1.04,"z-score, replicate A":1.06,"z-score, replicate B":0.91,"z-score, replicate C":1.14,"call":"inactive"}
{"gene":"ZNF107","mean z-score":0.13,"z-score, replicate A":0.36,"z-score, replicate B":0.02,"z-score, replicate C":0.02,"call":"inactive"}

Results, repeating the preview:
{"gene":"MLANA","mean z-score":1.04,"z-score, replicate A":1.06,"z-score, replicate B":0.91,"z-score, replicate C":1.14,"call":"inactive"}
{"gene":"ZNF107","mean z-score":0.13,"z-score, replicate A":0.36,"z-score, replicate B":0.02,"z-score, replicate C":0.02,"call":"inactive"}
{"gene":"ODAD1","mean z-score":-0.41,"z-score, replicate A":-0.06,"z-score, replicate B":-0.22,"z-score, replicate C":-0.94,"call":"inactive"}
{"gene":"PGBD3","mean z-score":0.04,"z-score, replicate A":-0.07,"z-score, replicate B":0.07,"z-score, replicate C":0.11,"call":"inactive"}
{"gene":"SLC43A2","mean z-score":0.11,"z-score, replicate A":-0.15,"z-score, replicate B":0,"z-score, replicate C":0.47,"call":"inactive"}
{"gene":"LOC200292 (retired record)","mean z-score":-1.83,"z-score, replicate A":-1.81,"z-score, replicate B":-1.59,"z-score, replicate C":-2.09,"call":"inactive"}
{"gene":"ZP1","mean z-score":-0.88,"z-score, replicate A":-0.93,"z-score, replicate B":-0.81,"z-score, replicate C":-0.89,"call":"inactive"}
{"gene":"SH3GL3","mean z-score":1.38,"z-score, replicate A":1.51,"z-score, replicate B":1.74,"z-score, replicate C":0.88,"call":"inactive"}
{"gene":"LZTS3","mean z-score":-0.9,"z-score, replicate A":-0.79,"z-score, replicate B":-0.98,"z-score, replicate C":-0.94,"call":"inactive"}
{"gene":"SKAP1","mean z-score":1.98,"z-score, replicate A":2.13,"z-score, replicate B":2.04,"z-score, replicate C":1.76,"call":"inactive"}
{"gene":"SPARCL1","mean z-score":-0.55,"z-score, replicate A":-0.53,"z-score, replicate B":-0.45,"z-score, replicate C":-0.67,"call":"inactive"}
{"gene":"EPHX3","mean z-score":0.28,"z-score, replicate A":0.68,"z-score, replicate B":0.05,"z-score, replicate C":0.12,"call":"inactive"}
{"gene":"SFTPC","mean z-score":-0.82,"z-score, replicate A":-0.58,"z-score, replicate B":-0.76,"z-score, replicate C":-1.11,"call":"inactive"}
{"gene":"KCNK9","mean z-score":-0.87,"z-score, replicate A":-0.89,"z-score, replicate B":-0.57,"z-score, replicate C":-1.14,"call":"inactive"}
{"gene":"AMY2B","mean z-score":-0.2,"z-score, replicate A":-0.36,"z-score, replicate B":0.03,"z-score, replicate C":-0.26,"call":"inactive"}
{"gene":"LBHD1","mean z-score":0.21,"z-score, replicate A":0.29,"z-score, replicate B":0.42,"z-score, replicate C":-0.08,"call":"inactive"}
{"gene":"LOC401363 (retired record)","mean z-score":-0.2,"z-score, replicate A":-0.15,"z-score, replicate B":-0.26,"z-score, replicate C":-0.21,"call":"inactive"}
{"gene":"STING1","mean z-score":-0.15,"z-score, replicate A":-0.1,"z-score, replicate B":-0.27,"z-score, replicate C":-0.08,"call":"inactive"}
{"gene":"TCF4","mean z-score":-0.27,"z-score, replicate A":-0.83,"z-score, replicate B":-0.1,"z-score, replicate C":0.11,"call":"inactive"}
{"gene":"LOC400861 (retired record)","mean z-score":-0.05,"z-score, replicate A":-0.1,"z-score, replicate B":-0.02,"z-score, replicate C":-0.02,"call":"inactive"}
{"gene":"PLGLA","mean z-score":1.25,"z-score, replicate A":1.33,"z-score, replicate B":1.29,"z-score, replicate C":1.14,"call":"inactive"}
